Laboratory results: PubChem BioAssay AID1259414 (Drosophila RNAi Screening Center, 2018)
Assay: 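Fly genes that alter Wolbachia amount inside host cells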 (primary screen). System: Drosophila JW18 cells infected with Wolbachia. Reagent: long dsRNA against Drosophila genes, 0.25 µg dsRNA per well of a 384-well plate. Time to read-out: 5 days. Challenge: cells persistently infected with Wolbachia before knock-down; no added drug. Detection: 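Imaged fluorescence in situ signal for Wolbachia 23S rRNA per DAPI-counted host cell, given as a robust z-score within each plate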. Reading the numbers: Wolbachia per cell robust z: higher = more Wolbachia per host cell than the plate typical. Rule for the call: 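Hit when robust z is 1.5 or more, or -1.5 or less, in at least two of three replicates; excludes dsRNAs with several or no targets, genes not expressed in JW18 and well A1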.
The screen tested about 24,000 reagents; shown is an unselected part of those that have a named target and a result. Of all reagents, about 1,210 (5%) got an active call. 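Inactive calls also include excluded dsRNAs with several or no targets, genes unexpressed in JW18, and well A1, regardless of score.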 No sequences are given here.

target gene,PubChem SID,"Wolbachia per cell robust z, rep 1","Wolbachia per cell robust z, rep 2","Wolbachia per cell robust z, rep 3",Outcome
sens (senseless),SID104189055,1.82,1.43,1.04,inactive
sens (senseless),SID104202443,-1.57,-0.476,0.751,inactive
2SrRNA-Psi:CR40677 (2S ribosomal RNA pseudogene:CR40677),SID104216221,-7.04,-0.24,-1.12,inactive
Dlg5 (Discs large 5),SID104182756,0.982,-1.14,-1.54,inactive
Dlg5 (Discs large 5),SID104205801,-0.517,-0.0743,-5.48,inactive
Agxt (Alanine-glyoxylate aminotransferase),SID104198510,0.387,0.45,0.0829,inactive
Agxt (Alanine-glyoxylate aminotransferase),SID104204659,-0.352,0.758,-1.39,inactive
Pop2,SID104190329,-1.25,-8.05,0.42,inactive
Pop2,SID104206515,0.142,0.361,-0.643,inactive
CG5509,SID104195614,1.11,-0.966,0.0889,inactive
BBS4 (Bardet-Biedl syndrome 4),SID104186144,0.636,-0.0744,-1.09,inactive
BBS4 (Bardet-Biedl syndrome 4),SID104206617,-1.81,-3.11,0.28,inactive
CG31219,SID104194932,0.482,-1.19,-1.22,inactive
Hk (Hyperkinetic),SID104197430,0.518,-0.0634,-0.879,inactive
Hk (Hyperkinetic),SID104203531,0.201,0.469,0.141,inactive
Hk (Hyperkinetic),SID104216704,-4.04,0.332,-0.574,inactive
Glut4EF (Glucose transporter 4 enhancer factor),SID104194304,-1.85,-0.688,-1.01,inactive
Glut4EF (Glucose transporter 4 enhancer factor),SID104194333,-0.398,-0.497,-0.401,inactive
Glut4EF (Glucose transporter 4 enhancer factor),SID104194334,-1.56,-0.435,-0.595,inactive
Glut4EF (Glucose transporter 4 enhancer factor),SID104194335,-0.559,-1.31,0.243,inactive
Glut4EF (Glucose transporter 4 enhancer factor),SID104202395,-3.11,-0.353,-4.2,active
Glut4EF (Glucose transporter 4 enhancer factor),SID104207168,-0.713,1.2,0.726,inactive
Glut4EF (Glucose transporter 4 enhancer factor),SID104207772,-5.09,-0.0199,-1.5,inactive
Glut4EF (Glucose transporter 4 enhancer factor),SID104214122,-0.242,0.0359,-0.0461,inactive
Glut4EF (Glucose transporter 4 enhancer factor),SID104214123,-0.842,-2.9,-1.21,inactive
Glut4EF (Glucose transporter 4 enhancer factor),SID104214124,-0.247,0.609,-0.169,inactive
Glut4EF (Glucose transporter 4 enhancer factor),SID104214125,-0.505,0.868,-0.7,inactive
Eph (Eph receptor tyrosine kinase),SID104196956,0.256,-6.67,-0.492,inactive
Eph (Eph receptor tyrosine kinase),SID104218372,-0.694,-1.76,-1.24,inactive
CG5646,SID104195645,1.23,0.408,0.233,inactive
CG5646,SID104208303,-3.34,-0.776,-4.4,active
HINT1 (histidine triad nucleotide binding protein 1),SID104205046,-2.37,-1.59,-1.32,active
CG6749,SID104190496,-2.22,0.534,-0.0902,inactive
Def (Defensin),SID104187190,0.19,0.72,-3.35,inactive
qless,SID104194895,-1.38,-2.45,-3.37,active
qless,SID104195299,-0.026,0.372,-1.07,inactive
Cad74A (Cadherin 74A),SID104190428,0.347,-2.08,-0.103,inactive
nAChRalpha4 (nicotinic Acetylcholine Receptor alpha4),SID104191717,-0.617,0.105,-1.2,inactive
nAChRalpha4 (nicotinic Acetylcholine Receptor alpha4),SID104205361,0.343,0.844,-0.0439,inactive
Rpp14b (Ribonuclease P/MRP subunit p14 b),SID104194855,0.56,-4.24,-1.39,inactive
spn-B (spindle B),SID104196855,0.713,1.41,-9.33,inactive
spn-B (spindle B),SID104205243,-0.335,-0.00839,-0.862,inactive
tay (tay bridge),SID104199934,-0.144,-11.1,-0.259,inactive
CG31910,SID104206730,0.547,0.721,-0.0736,inactive
JMJD4 (Jumonji domain containing 4),SID104182817,0.686,-0.0605,0.7,inactive
JMJD4 (Jumonji domain containing 4),SID104203914,-2.09,1.69,-0.687,inactive
CG13073,SID104189748,-4.25,0.0315,-0.837,inactive
CG13073,SID104203345,-0.105,0.51,-0.417,inactive
alpha-Est9 (alpha-Esterase-9),SID104192413,0.26,0.346,-0.804,inactive
WDR79 (WD repeat domain 79),SID104182951,-0.337,0.472,2.07,inactive
CG14435,SID104202639,0.339,-0.665,-0.0754,inactive
nrv3 (nervana 3),SID104182889,-0.304,0.219,-0.123,inactive
Nopp140,SID104191664,-1.02,-0.775,-0.497,inactive
Nopp140,SID104203287,-0.184,1.94,1.36,inactive
Nopp140,SID104216636,0.705,-0.128,-5.16,inactive
mrn (marionette),SID104190705,0.157,-1.34,0.22,inactive
Naa35 (N(alpha)-acetyltransferase 35),SID104184239,0.574,0.363,0.776,inactive
Naa35 (N(alpha)-acetyltransferase 35),SID104204693,0.71,0.798,0.475,inactive
CG18327,SID104186514,-0.0034,1.26,-0.712,inactive
CG18327,SID104203168,0.323,-0.267,-0.203,inactive
CG12679,SID104200285,-0.282,-1.26,-2.28,inactive
CG12679,SID104208133,-0.0798,-1.36,-0.573,inactive
tinc (tincar),SID104194590,0.781,0.47,0.869,inactive
tinc (tincar),SID104194591,1.17,1.26,-0.881,inactive
tinc (tincar),SID104196100,-3.54,-5.34,-0.546,inactive
tinc (tincar),SID104196101,0.35,-0.233,-1.09,inactive
rad50,SID104184315,-0.145,0.142,0.326,inactive
CG15452,SID104200315,0.135,-1.45,-3.9,inactive
